Columns and labels:
[1] = biological target: human PD-L1 (CD274), human, Q9NZQ7 19-290; assay: membrane proteome array, 5,300 human proteins expressed on HEK-293T cells
[2] = biological target: human PD-L1 (CD274), human, Q9NZQ7 19-290; assay: binding to human PD-L1
[3] = biological target: human PD-L1 (CD274), human, Q9NZQ7 19-290; assay: flow cytometry cell binding; row printed as "Binding Kd EC50"

Substance | result [1] | Kd [2] | EC50 [3]
DI-SLTA-1::scFva::C1 | binds | – | –
DI-SLTA-1::scFva::C1::C1 | – | 0.29 µg/mL | 0.293 µg/mL
DI-SLTA-1::scFvb::C1 | – | – | 0.115 µg/mL
